The source of these data is patent publication US20130039943A1, “NOVEL METHOD” (priority 2010, published 2013).

Values joined by “and” are separate entries in the source; they are usually repeats but may differ in a detail not shown here. Identical values can stand only once. Marks after values point to notes of the source that are not given here.

Holding throughout (type): cell-based
The test system of test [1] is Influenza virus Malaysia B strain produced on MDCK cells.
Test [2] deals with Influenza virus Wisconsin A strain produced on MDCK cells.
The subject of test [3] is Murine Leukaemia Virus (MuLV).
The test system of another test is Hepatitis A Virus (HAV).
Test [4] relates to Porcine Pseudorabies Virus (PRV).
Test [5] has as its system Influenza virus produced on MDCK cells.
The test system of test [6] is H5N1 influenza virus produced on EB66 cells.

Consider `O=C1CCO1` [BPL, beta-propiolactone], for which the “log TCID50/ml” value was “≦1.8 log TCID50/ml” in test [1], “≦0.8 log TCID50/ml” in test [2], 1.5 log TCID50/ml in the test on Hepatitis A Virus (HAV) and 2.6 log TCID50/ml in test [4]. Besides, the LVR in test [3] was 2.7 log and 2.8 log and 1.6 log; in the test with Hepatitis A Virus (HAV), 3.8 log; in test [4], 3.4 log. The viral titration reduction entry in test [5] is “about 8 logs”.
Regarding Triton X-100, in test [6], the LVR was 3.8*** log; the “log TCID50/ml” value is 5.2 log TCID50/ml and 5.0 log TCID50/ml.
